Pooled drug test results. Numbers come from NIAID ChemDB, via PubChem.

Shared fields: host cell toxicity; read-out: CC50

Neighbouring rows are from separate reports. An empty or dashed field is not shown. CCn is the concentration with n% toxicity to the cells.

| SMILES | cell line | read by | value |
|---|---|---|---|
| CCCNC(=O)Oc1ccc(Cl)cc1C(=O)Nc1ccc(Cl)c(Cl)c1 | Mono Mac 6 | MTT | 7 µM |
| CCC1(Cc2ccccc2)OS(=O)(=O)C=C1OCc1ccc(C(F)(F)F)cc1 | HEL fibroblasts | - | 99 µM |
| Fc1ccc(-c2n[nH]c(=S)s2)cc1 | THP-1 | MTT | >100 µg/mL |
| CC(C)[C@H](NC(=O)[C@@H](O)Cc1ccccc1)C(=O)N[C@@H](Cc1ccccc1)[C@@H](O)[C@H](O)[C@H](Cc1ccccc1)NC(=O)[C@@H](NC(=O)[C@@H](O)Cc1ccccc1)C(C)C | PBLC | - | >0.1 µM |
| CCc1cn([C@H]2C[C@H](O)[C@@H](CO)O2)c(=O)[nH]c1=O | NIH 3T3 | cell count | 17 µM |
| O=C(Nc1ccc(C(F)(F)F)cc1)c1cc(Br)ccc1O | Mono Mac 6 | MTT | 7.6 µM |
| FC(F)(F)c1cccc(-c2nc(=S)[nH][nH]2)c1 | Panc-1 | MTT | >100 µg/mL |
| CCC[C@H](NC(=O)[C@H](Cc1cccc2ccccc12)CS(=O)(=O)C(C)(C)C)C(=O)N[C@@H](Cc1ccccc1)[C@@H](O)[C@H](O)[C@H](Cc1ccccc1)NC(=O)[C@H](CCC)NC(=O)[C@H](Cc1cccc2ccccc12)CS(=O)(=O)C(C)(C)C | PBLC | - | >0.004 µM |
| O=C(NCCCCl)Oc1ccc(Cl)cc1C(=O)Nc1ccc(C(F)(F)F)cc1 | Mono Mac 6 | MTT | 8.8 µM |
| CC(C)(C)S(=O)(=O)C[C@@H](Cc1cccc2ccccc12)C(=O)N[C@@H](CCC(=O)O)C(=O)N[C@@H](Cc1ccccc1)[C@@H](O)[C@H](O)[C@H](Cc1ccccc1)NC(=O)[C@H](CCC(=O)O)NC(=O)[C@H](Cc1cccc2ccccc12)CS(=O)(=O)C(C)(C)C | PBLC | - | >1 µM |
| NC(=O)c1[nH]c2c(c1N)C1=C(CCC/C1=C\c1ccncc1)C(c1ccncc1)S2 | CNE-2 | MTT | >50 µM |
| NC(=S)Nc1ccc2c(c1)C(=O)c1ccccc1-2 | Ava5-EG(delta4AB)SEAP | MTS | >1 µM |
| O=c1[nH]c(=O)n([C@H]2C[C@H](O)[C@@H](CO)O2)cc1/C=C/Br | P3HR-1 | cell count | 495 µM |
| O=C(c1ccccc1)c1ccc(NC(=O)c2cc(Br)ccc2O)cc1 | Mono Mac 6 | MTT | 21.8 µM |
| NC(=S)Nc1cccc(OCCCCCOc2c(Cl)cccc2Cl)c1 | Ava5-EG(delta4AB)SEAP | MTS | >1 µM |
| CCC1(Cc2ccccc2)OS(=O)(=O)C=C1OCCCCCCc1ccccc1 | HEL fibroblasts | - | <200 µM |
| N=c1c2c(ncn1Nc1ccccc1)SC(c1ccncc1)C1=C2/C(=C/c2ccncc2)CCC1 | KB | MTT | 11.7 µM |
| NC(=S)Nc1ccc2c(c1)Cc1cc(N(Cc3ccccc3)Cc3ccccc3)ccc1-2 | Ava5-EG(delta4AB)SEAP | MTS | >1 µM |
| CC(C)[C@H](NC(=O)[C@H](Cc1cccc2ccccc12)CS(=O)(=O)C(C)(C)C)C(=O)N[C@@H](Cc1ccccc1)[C@H](O)[C@@H](O)[C@H](Cc1ccccc1)NC(=O)[C@@H](NC(=O)[C@H](Cc1cccc2ccccc12)CS(=O)(=O)C(C)(C)C)C(C)C | PBLC | - | >0.02 µM |
| O=C1Sc2nc3c(c(=S)n2C/C1=C/c1ccccc1)C1=C(CCC/C1=C\c1ccncc1)C(c1ccncc1)S3 | MGC-803 | MTT | 26.1 µM |
| Cc1nc(N2CCCC2)c([N+](=O)[O-])c(N2CC[N+]3(CC2)CC[N+]2(CCN(c4nc(C)nc(N5CCCC5)c4[N+](=O)[O-])CC2)CC3)n1 | GMK | - | >70.7 µg/mL |
| CCOC(=O)CNC1=C(C#N)C2=C(CCC/C2=C\c2ccncc2)C(c2ccncc2)S1 | MGC-803 | MTT | >50 µM |
| CC(C)[C@@H]1NC(=O)[C@@H](C(C)C)OC(=O)[C@H](C(C)C)N(C)C(=O)[C@@H](C(C)C)OC(=O)[C@H](C(C)C)N(C)C(=O)[C@@H](C(C)C)OC1=O | KB cells | absorbance | 2.24 µM |
| Nc1nc(=O)n([C@@H]2O[C@H](CO)[C@@H](O)[C@@H]2F)cc1I | P3HR-1 | cell count | 22 µM |
| Fc1ccc(Nc2nccc(-c3c(-c4ccc(F)cc4)nn4c(NC5CCCC5)cccc34)n2)cc1 | VERO 76 | - | >40 µM |
| O=C(NCCCl)N1CC[N+]2(CC1)CC[N+]1(CCN(C(=O)NCCCl)CC1)CC2 | L929 | - | >90.4 µg/mL |
| COC1=CC(=O)c2c(O)c3c(c(O)c2C1=O)CC(C)(O)OC3 | MDA-MB-231 | MTT | 1.8 µg/mL |
| CCC1(CC)OS(=O)(=O)C=C1OCc1ccccc1 | HEL fibroblasts | - | >200 µM |
| Nc1nc2c(ncn2CCC(CO)CO)c(=O)[nH]1 | NIH 3T3 | cell count | 91 µM |
| CCCCNc1nccc(-c2c(-c3ccc(F)cc3)nn3c(NC)cccc23)n1 | VERO 76 | - | 40 µM |
| COC1=CC(=O)c2c(O)c(C)c3c(c2C1=O)OC(C)C3 | MDA-MB-231 | MTT | 110.2 µg/mL |
| CC(C)C[C@@H]1NC(=O)[C@H](Cc2c[nH]c3ccccc23)NC(=O)[C@@H](CCCN)NC(=O)[C@H](CC(N)=O)NC(=O)[C@H](C(C)C)NC(=O)[C@@H](C)NC1=O | Hep2G | luminescence | >100 µM |
| CC(C)C1(Cc2ccccc2)OS(=O)(=O)C=C1OCc1ccccc1 | HEL fibroblasts | - | >200 µM |
| CCOC1N=C2C3=C(N=C(C)N2N1c1ccccc1)SC(c1ccncc1)C1=C3/C(=C/c2ccncc2)CCC1 | MGC-803 | MTT | 12.9 µM |
| CC(C)C[C@@H]1NC(=O)[C@H](C)NC(=O)[C@@H](CCCN)NC(=O)[C@H](CC(N)=O)NC(=O)[C@H](C(C)C)NC(=O)[C@@H](CC(C)C)NC1=O | Hep2G | luminescence | >100 µM |
| Fc1ccc(Nc2cccc3c(-c4ccnc(NC5CCCC5)n4)c(-c4ccc(F)cc4)nn23)cc1 | VERO 76 | - | >40 µM |
| COC1=CC(=O)c2c(O)c(C)c(CC(C)=O)c(O)c2C1=O | MDA-MB-231 | MTT | 4.1 µg/mL |
| NC(=S)Nc1ccccc1OCCCCCc1ccccc1 | Ava5-EG(delta4AB)SEAP | MTS | >1 µM |
| O=C(NCCCCl)Oc1ccc(Br)cc1C(=O)Nc1ccc(C(=O)c2ccccc2)cc1 | Mono Mac 6 | MTT | 12.6 µM |
| COc1ccc(C[C@H](CS(=O)(=O)C(C)(C)C)C(=O)N[C@H](C(=O)N[C@@H](Cc2ccccc2)[C@@H](O)[C@H](O)[C@H](Cc2ccccc2)NC(=O)[C@@H](NC(=O)[C@H](Cc2ccc(OC)cc2)CS(=O)(=O)C(C)(C)C)C(C)C)C(C)C)cc1 | PBLC | - | >0.08 µM |
| O=C1CCn2c(nc3c(c2=S)C2=C(CCC/C2=C\c2ccncc2)C(c2ccncc2)S3)S1 | MGC-803 | MTT | 43.2 µM |
| NC(=S)Nc1cccc(OCCCCCOc2ccccc2-c2ccccc2)c1 | Ava5-EG(delta4AB)SEAP | MTS | >1 µM |
| Nc1nc2c(ncn2COC(CO)CO)c(=O)[nH]1 | OMK | cell count | >900 µM |
| Fc1ccc(-c2nc(=S)[nH][nH]2)cc1 | Panc-1 | MTT | >100 µg/mL |
| CCOC(=O)c1[nH]c2c(c1NC(N)=S)C1=C(CCC/C1=C\c1ccncc1)C(c1ccncc1)S2 | MCF-7 | MTT | >50 µM |
| C#CCSc1n[nH]c(-c2ccc([N+](=O)[O-])c(C(F)(F)F)c2)n1 | THP-1 | MTT | >100 µg/mL |
| CCCCN1CCN(C(=S)Nc2cccc(OCc3ccccc3)c2)C1=S | Ava5-EG(delta4AB)SEAP | MTS | >1 µM |
| C#CCSc1n[nH]c(-c2ccc(C(F)(F)F)cc2)n1 | Panc-1 | MTT | >100 µg/mL |
| CCCCNc1nccc(-c2c(-c3ccc(F)cc3)nn3c(N4CCN(C)CC4)cccc23)n1 | VERO 76 | - | 5.5 µM |
| C1CN(CC2CO2)CC[N+]2(C1)CC[N+]1(CCCN(CC3CO3)CC1)CC2 | L929 | - | 312.9 µg/mL |
| CCCCNc1cccc2c(-c3ccnc(N4CCCC4)n3)c(-c3ccc(F)cc3)nn12 | VERO 76 | - | >160 µM |
| CC(C)[C@H](NC(=O)[C@H](Cc1cccc2ccccc12)CS(=O)(=O)C(C)(C)C)C(=O)N[C@@H](Cc1ccc2c(c1)OCO2)[C@@H](O)[C@H](O)[C@H](Cc1ccc2c(c1)OCO2)NC(=O)[C@@H](NC(=O)[C@H](Cc1cccc2ccccc12)CS(=O)(=O)C(C)(C)C)C(C)C | PBLC | - | >0.02 µM |
| O=C(NCCCl)Oc1ccc(Cl)cc1C(=O)Nc1ccc(C(F)(F)F)cc1 | Mono Mac 6 | MTT | 7.6 µM |
| CCOC1N=C2C3=C(N=CN2N1c1ccccc1)SC(c1ccncc1)C1=C3/C(=C/c2ccncc2)CCC1 | MGC-803 | MTT | 13.2 µM |
| Cc1ccc(Cl)cc1-c1nc(=S)[nH][nH]1 | A549 | MTT | >100 µg/mL |
| CCC(C)[C@H](NC(=O)[C@H](Cc1cccc2ccccc12)CS(=O)(=O)C(C)(C)C)C(=O)N[C@@H](Cc1ccccc1)[C@@H](O)[C@H](O)[C@H](Cc1ccccc1)NC(=O)[C@@H](NC(=O)[C@H](Cc1cccc2ccccc12)CS(=O)(=O)C(C)(C)C)C(C)CC | PBLC | - | >0.01 µM |
| CCC(C)C1NC(=O)[C@H](Cc2c[nH]c3ccccc23)NC(=O)[C@@H](CCCN)NC(=O)[C@H](CC(N)=O)NC(=O)[C@H](C(C)C)NC(=O)[C@@H](CC(C)C)NC1=O | Hep2G | luminescence | >100 µM |
| NNC(=O)c1ccncc1 | Panc-1 | MTT | >100 µg/mL |
| O=C(NCCCCl)Oc1ccc(Br)cc1C(=O)Nc1ccc(C(F)(F)F)cc1 | Mono Mac 6 | MTT | 5.7 µM |
| Oc1ccc(-c2nc(SCC3CC3)n[nH]2)cc1 | A549 | MTT | >100 µg/mL |
| Fc1ccc(-c2nn3c(NN4CCOCC4)cccc3c2-c2ccnc(NC3CCCC3)n2)cc1 | VERO 76 | - | >40 µM |
| N#C/C(=C(\N)N1CC[N+]2(CC1)CC[N+]1(CCN(/C(N)=C(/C#N)[N+](=O)[O-])CC1)CC2)[N+](=O)[O-] | GMK | - | >820.3 µg/mL |
| CC(C)CC1C(=O)N[C@H](CC(C)C)C(=O)N(C)C(C(C)C)C(=O)N[C@@H](CC(N)=O)C(=O)N[C@H](CCCN)C(=O)N[C@@H](Cc2c[nH]c3ccccc23)C(=O)N1C | Hep2G | luminescence | >100 µM |
| CCCNC(=O)Oc1ccc(Cl)cc1C(=O)Nc1ccc(C(=O)c2ccccc2)cc1 | Mono Mac 6 | MTT | 18.7 µM |